Results of unrelated studies side by side (data: NIAID ChemDB).

All rows: cytotoxicity tests; cells: THP-1; endpoint: CC50

CCn: concentration that lowers growth or viability of the cells by n%. Rows are shuffled and stem from different studies.

C=CCSc1n[nH]c(-c2cccc(C(F)(F)F)c2)n1 ; value: >100 µg/mL
COc1cc(/C=N/NC(=O)COc2ncnc3sccc23)cc(OC)c1OC ; method: MTT / absorbance ; value: 2020 µM
C#CCSc1n[nH]c(-c2cccc(C(F)(F)F)c2)n1 ; method: MTT ; value: >100 µg/mL
O=[N+]([O-])c1cc2nc(/N=C3/CC(c4ccc(O)cc4)N(c4nc5ccc(F)c(Cl)c5s4)N3)sc2c(Cl)c1F ; method: MTT ; value: 192 µg/mL
FC(F)(F)c1ccc(-c2nc(=S)[nH][nH]2)cc1 ; method: MTT ; value: 65.68 µg/mL
O=C(c1ccc2ccccc2c1)N1CCCC1 ; method: WST ; value: >100 µM
C#CCS(=O)(=O)c1nc(-c2ccc([N+](=O)[O-])c(C(F)(F)F)c2)n[nH]1 ; method: MTT ; value: >100 µg/mL
COc1ccc(N(Cc2c(Cl)cccc2Cl)S(=O)(=O)c2cccc(C#N)c2)cc1C(=O)O ; method: absorbance ; value: >33 µM
CCOc1cc(C2SCC(=O)N2NC(=O)c2nccnc2N)ccc1O ; method: MTT ; value: 89.65 µg/mL
O=[N+]([O-])c1cc(F)c(Cl)c2sc(/N=C3/CC(c4ccc(O)cc4)N(c4nc5ccc(F)c(Cl)c5s4)N3)nc12 ; method: MTT ; value: 432.5 µg/mL
CN(C)c1ccc(/C=N/NC(=O)COc2ncnc3sccc23)cc1 ; method: MTT / absorbance ; value: 2490 µM
C#CCSc1n[nH]c(-c2ccco2)n1 ; value: >100 µg/mL
COc1ccnc(NC(=O)NS(=O)(=O)c2cc(NC(=O)CCl)ccc2Cl)n1 ; method: MTT ; value: 179.7 µg/mL
O=C(COc1ncnc2sccc12)N/N=C/c1ccc(Cl)cc1 ; method: MTT / absorbance ; value: 2260 µM
CCSc1n[nH]c(-c2ccc(Cl)cc2C)n1 ; value: >100 µg/mL
O=[N+]([O-])c1ccc(-c2nc(=S)[nH][nH]2)cc1 ; method: MTT ; value: 38.83 µg/mL
O=C(Nc1ccccc1C(F)(F)F)c1c(O)ccc2ccccc12 ; value: >20 µM
COc1cc(C2C/C(=N/c3nc4ccc(F)c(Cl)c4s3)NN2c2nc3ccccc3s2)ccc1O ; method: MTT ; value: 423.5 µg/mL
C#CCSc1n[nH]c(-c2ccc(C(F)(F)F)cc2)n1 ; method: MTT ; value: 49.55 µg/mL
CO[C@@H]1[C@H](N(C)C(=O)c2ccccc2)C[C@@]2(C)O[C@]1(C)n1c3ccccc3c3c4c(c5c6ccccc6n2c5c31)C(=O)NC4 ; method: fluorescence ; value: >5 µM
FC(F)(F)c1ccc(Cl)c(-c2nc(=S)[nH][nH]2)c1 ; method: MTT ; value: 55.89 µg/mL
O=C(O)c1ccc(N2C(=O)c3cccc([N+](=O)[O-])c3C2=O)cc1O ; method: visual reading / absorbance ; value: >100 µg/mL

Repeating the final 2 entries:

structure	method	value
FC(F)(F)c1ccc(Cl)c(-c2nc(=S)[nH][nH]2)c1	MTT	55.89 µg/mL
O=C(O)c1ccc(N2C(=O)c3cccc([N+](=O)[O-])c3C2=O)cc1O	visual reading / absorbance	>100 µg/mL